Tests used:
[1] = target: HCV NS5B polymerase (NS5BΔCT21, from HCV-Con 1 isolate, genotype 1b) (Hepatitis C virus genotype 1b, UniProt Q9WMX2); assay: HCV NS5B Polymerase Inhibition Assay; details: [33P]-CTP incorporation, 22° C. for 2 hours
Text: A chemically synthesized 75-mer version, designated DCoH75, whose sequence matches the 3′-end of D-RNA, and DCoH75ddC, where the 3′-terminal cytidine of DCoH75 is replaced by dideoxycytidine, were used for assaying the NS5B enzyme activity as described in Ferrari et al., 12th International Symposium on HCV and Related Viruses, P-306 (2005). The sequence of the template RNA was: 5′-UGUGCCGGUCUUUCUGAACGGGAUAUAAACCUGGCCAGCUUCAUCGAACAAGUUGCCGUGUCUAUGACAUAGAUC-3′. A soluble C-terminal 21-amino acid truncated NS5B enzyme form (NS5BΔCT21, from HCV-Con 1 isolate, genotype 1b, Genbank accession number AJ238799) was produced and purified from Escherichia coli as C-terminal polyhistidine-tagged fusion protein as described in Ferrari et al., J. Virol. 73:1649-1654 (1999). […] Reactions were incubated at 22° C. for 2 hours, then stopped by adding 150 mM EDTA, washed in DE81 filter plate in 0.5M di-basic sodium phosphate buffer, pH 7.0, and counted using Packard TopCount after the addition of scintillation cocktail. Polynucleotide synthesis was monitored by the incorporation of radiolabeled CTP. The effect of the Compounds of Formula (I) on the polymerase activity was evaluated by adding various concentrations of a Compound of Formula (I), typically in 10 serial 2-fold dilutions, to the assay mixture. […]

[2] = system: HCV replicon cells (replicon RNA level); assay: Cell-Based HCV Replicon Assay; details: replicon RNA level by real time PCR (Taqman), cells harvested on day 3
Procedure: To measure cell-based anti-HCV activity of the a Compound of Formula (I), replicon cells were seeded at 5000 cells/well in 96-well collagen I-coated Nunc plates in the presence of the Compound of Formula (I). Various concentrations of a Compound of Formula (I), typically in 10 serial 2-fold dilutions, were added to the assay mixture, with the starting concentration ranging from 250 μM to 1 μM. The final concentration of DMSO was 0.5%, fetal bovine serum was 5%, in the assay media. Cells were harvested on day 3 by the addition of 1× cell lysis buffer (Ambion cat #8721). The replicon RNA level was measured using real time PCR (Taqman assay). The amplicon was located in 5B. The PCR primers were: 5B.2F, ATGGACAGGCGCCCTGA; 5B.2R, […]; the probe sequence was FAM-labeled CACGCCATGCGCTGCGG. GAPDH RNA was used as endogenous control and was amplified in the same reaction as NS5B (multiplex PCR) using primers and VIC-labeled probe recommended by the manufacturer (PE Applied Biosystem). The real-time RT-PCR reactions were run on ABI PRISM 7900HT Sequence Detection System using the following program: 48° C. for 30 min, 95° C. for 10 min, 40 cycles of 95° C. for 15 sec, 60° C. for 1 min. […] Alternatively, to quantitate the absolute amount of replicon RNA, a standard curve was established by including serially diluted T7 transcripts of replicon RNA in the Taqman assay. […]

Row | SMILES | IC50 [1] [nM] | EC50 [2] [nM]
1 | CC(C)(C)C(=O)OCn1cc(F)c(Cn2c(C(=O)O)c(-c3ccc[nH]c3=O)c3c4occc4c(F)cc32)cc1=O | < 25 | < 500
2 | CS(=O)(=O)NC(=O)c1c(-c2ccc[nH]c2=O)c2c3occ(Cl)c3ccc2n1Cc1ccccc1F | < 25 | < 500

Source: patent US8557848B2, “4,5-ring annulated indole derivatives for treating or preventing of HCV and related viral infections” (Merck Sharp & Dohme Corp., priority 2006, dated 2013)
